Compound potency records, mixed from different reports. Data source: NIAID ChemDB in PubChem.

Common to all: enzyme or target tests; protein: CCR5; read-out: IC50

Conditions beyond the fields shown may differ between rows. ICn: concentration for n% inhibition.

Cc1ccc(-c2ccc3c(c2)C=C(C(=O)Nc2ccc(CN(C)C4CCOCC4)cc2)CCO3)cc1 ; method: radiometric ; result: 0.53 µM
CCCCOCCOc1ccc(-c2ccc3c(c2)C=C(C(=O)Nc2ccc(CN(C)C4CCOCC4)cc2)CCN3Cc2nccn2C)cc1 ; method: radiometric ; result: 0.012 µM
CCN(C(=O)Cc1ccc(S(C)(=O)=O)cc1)C1CCN(CCC(c2ccccc2)C2CCN(S(=O)(=O)CC)CC2)CC1 ; method: radiometric ; result: 0.003 µM
CCCCOCCOc1ccc(-c2ccc3c(c2)C=C(C(=O)Nc2ccc(S(=O)Cc4nncn4CCC)cc2)CCN3CC(C)C)cc1 ; method: radiometric ; result: 0.0026 µM
O=C(Nc1ccc(Br)cc1)N(CCCN1CCC(Cc2ccc(F)cc2)CC1)c1ccccc1 ; method: radiometric ; result: 0.018 µM
Cc1ccc(-c2ccc3c(c2)C=C(C(=O)Nc2ccc(CN(C)C4CCOCC4)cc2)CCS3)cc1 ; method: radiometric ; result: 0.8 µM
COc1ccc(NC(=O)N(CCCN2CCC(Cc3ccc(F)cc3)CC2)c2ccccc2)cc1 ; method: radiometric ; result: 0.03 µM
c1ccc(-c2cccc(NCc3ccc(CN4CCCNCCNCCCNCC4)cc3)c2)cc1 ; method: fluorescence ; result: <10 µM
CC(=O)N1CCC(C(=O)N(CCCN2CCC(Cc3ccc(F)cc3)CC2)c2ccc(C)c(Cl)c2)CC1 ; method: radiometric ; result: 0.00029 µM
CCS(=O)(=O)c1ccc(CC2CCN(CCCN(C(=O)C3CCN(S(C)(=O)=O)CC3)c3ccc(Cl)c(Cl)c3)CC2)cc1 ; method: radiometric ; result: 0.0019 µM
O=C(NC1CCCCC1)N(CCCN1CCC(Cc2ccccc2)CC1)c1ccccc1 ; method: radiometric ; result: 0.024 µM
CN1CC(C(=O)N(CCCCCN2CCC(C(=O)c3ccc(F)cc3)CC2)c2ccccc2)CC1=O ; method: radiometric ; result: 5 µM
c1ccc(CN2C[C@@H](CN3CCC(c4ccccc4)CC3)[C@H](c3ccccc3)C2)cc1 ; method: radiometric ; result: 0.152 µM
CC(=O)N1CCC(C(=O)N(CCCN2CCC(Cc3ccc(F)cc3)CC2)c2ccc(C(C)C)c(Cl)c2)CC1 ; method: radiometric ; result: 0.018 µM
CCN(C(=O)Cc1ccc(S(C)(=O)=O)cc1)C1CCN(CC[C@H](NC(=O)C2CCN(C(=O)c3ccc(Cl)cc3)CC2)c2ccccc2)CC1 ; method: fluorescence ; result: <50 µM
CCCCOCCOc1ccc(-c2ccc3c(c2)C=C(C(=O)Nc2ccc(S(=O)Cc4nncn4CCC)cc2)CCN3CCC)cc1 ; method: radiometric ; result: 0.0043 µM
CCN(C[C@@H](CCN1CCC2(CC1)CSc1ccccc12)c1ccc(Cl)c(Cl)c1)C(=O)c1ccccc1 ; method: radioligand binding / binding ; result: 10 µM
CCN(C(=O)Cc1ccc(S(C)(=O)=O)cc1)C1CCN(CCC(c2cccc(F)c2)C2CCN(Cc3cccnc3)CC2)CC1 ; method: radiometric ; result: 0.001 µM
C=C(C)[C@H]1CC[C@@]2(C)CC[C@]3(C)C[C@H]4[C@@H](C)C=C[C@H]4/C(C(=O)O)=C\C[C@H]3[C@H]12 ; method: radiometric ; result: >33 µM
C/C=C(\C)[C@@H]1C=C[C@@H]2C[C@H](C)C[C@H](C)[C@H]2[C@@H]1C(=O)C1=C(O)[C@@H](CC[C@@](C)(O)C(=O)O)CC1=O ; method: binding ; result: 0.0786 µM
CC(C)=CC[C@@H](O)C1=CC(=O)c2c(O)ccc(O)c2C1=O ; result: <1 µM
CCCOCCOc1ccc(-c2ccc3c(c2)C=C(C(=O)Nc2ccc(CN(C)C4CCOCC4)cc2)CCN3C)cc1 ; method: radiometric ; result: 0.068 µM
CCCCOCCOc1ccc(-c2ccc3c(c2)C=C(C(=O)Nc2ccc(S(=O)Cc4nccn4CCC)cc2)CCN3CC(C)C)cc1 ; method: radiometric ; result: 0.0043 µM
CCC(CC)N(C)Cc1ccc(NC(=O)C2=Cc3cc(-c4ccc(C)cc4)ccc3OCC2)cc1 ; method: radiometric ; result: 0.64 µM
O=C(OCc1ccccc1)N1CCC(C(=O)N(CCCN2CCC(Cc3ccccc3)CC2)c2ccccc2)CC1 ; method: radiometric ; result: 0.048 µM
O[C@@]1(c2ccccc2)CN(Cc2ccccc2)C[C@H]1CN1CCC(c2ccccc2)CC1 ; method: radiometric ; result: >10 µM
CCN(C(=O)Cc1ccc(S(C)(=O)=O)cc1)C1CCN(CCC(c2ccccc2)N2CCN(C(=O)Nc3ccccc3)CC2)CC1 ; method: radiometric ; result: 0.059 µM
Cc1ccc(-c2ccc3c(c2)C=C(C(=O)Nc2ccc(CN(C)C4CCOCC4)cc2)CCS3=O)cc1 ; method: radiometric ; result: 0.3 µM
CCN(C(=O)Cc1ccc(S(C)(=O)=O)cc1)C1CCN(CC[C@H](NC(=O)Oc2ccccc2)c2ccccc2)CC1 ; method: fluorescence ; result: <50 µM
CN(C[C@@H](CCN1CCC2(CC1)CS(=O)c1ccccc12)c1ccc(Cl)c(Cl)c1)S(=O)(=O)c1ccc(-c2ccccn2)s1 ; method: radioligand binding / binding ; result: 0.02 µM
Cc1ccc(-c2ccc3c(c2)C=C(C(=O)Nc2ccc(C[N+](C)(C)C4CCOCC4)cc2)CCC3)cc1 ; method: radiometric ; result: 0.0014 µM
Cc1ccc(-c2ccc3c(c2)C=C(C(=O)Nc2ccc(CP4(=O)CCCCC4)cc2)CCO3)cc1 ; method: radiometric ; result: 0.41 µM
CCN(C(=O)Cc1ccc(S(C)(=O)=O)cc1)C1CCN(CC[C@H](NC(=O)OC(C)(C)C)c2ccccc2)CC1 ; method: fluorescence ; result: <50 µM
Cc1ccc(-c2ccc3c(c2)C=C(C(=O)Nc2ccc(CN(C)CCCO)cc2)CCO3)cc1 ; method: radiometric ; result: 0.73 µM
CCCCOCCOc1ccc(-c2ccc3c(c2)C=C(C(=O)Nc2ccc([C@@H](O)c4cccc[n+]4[O-])cc2)CCS3(=O)=O)cc1 ; method: radiometric ; result: 3.6 µM
CC(=O)N1CCCC(C(=O)N(CCCN2CCC(Cc3ccccc3)CC2)c2ccccc2)C1 ; method: radiometric ; result: 0.68 µM
CCCCOCCOc1ccc(-c2ccc3c(c2)C=C(C(=O)Nc2ccc([C@H](O)c4cccc[n+]4[O-])cc2)CCN3CC2CC2)cc1 ; method: radiometric ; result: 0.034 µM
Cc1ccc(NC(=O)N(CCCN2CCC(Cc3ccc(F)cc3)CC2)c2ccccc2)cc1 ; method: radiometric ; result: 0.0066 µM
CS(=O)(=O)N1CCC(C(=O)N(CCCN2CCC(Cc3ccc([N+](=O)[O-])cc3)CC2)c2ccc(Cl)c(Cl)c2)CC1 ; method: radiometric ; result: 0.0024 µM
CCCCOCCOc1ccc(-c2ccc3c(c2)C=C(C(=O)Nc2ccc(S(=O)Cc4nccn4CC)cc2)CCN3CC(C)C)cc1 ; method: radiometric ; result: 0.0066 µM
CCN(C(=O)Cc1ccc(S(C)(=O)=O)cc1)C1CCN(CCC(c2ccccc2)C2CCN(C(=O)c3ccc(Cl)cc3)CC2)CC1 ; method: radiometric ; result: 0.002 µM
O=C(NCc1ccccc1)N(CCCN1CCC(Cc2ccccc2)CC1)c1ccccc1 ; method: radiometric ; result: 0.15 µM
CCCOc1ccc(-c2ccc3c(c2)C=C(C(=O)Nc2ccc(CN(C)C4CCOCC4)cc2)CCS3(=O)=O)cc1 ; method: radiometric ; result: 0.035 µM
CCCCOCCOc1ccc(-c2ccc3c(c2)C=C(C(=O)Nc2ccc([C@H](O)c4cccc[n+]4[O-])cc2)CCN3CCC)cc1 ; method: radiometric ; result: 0.038 µM
CN(C[C@H](CCN1CCC2(CC1)CS(=O)c1ccccc12)c1ccc(Cl)c(Cl)c1)S(=O)(=O)c1ccccc1 ; method: radioligand binding / binding ; result: 0.87 µM
CCCCOCCOc1ccc(-c2ccc3c(c2)C=C(C(=O)Nc2ccc(CN(C)C4CCOCC4)cc2)CCN3Cc2ccccc2)cc1 ; method: radiometric ; result: 0.0053 µM
Cc1ccc(-c2ccc3c(c2)C=C(C(=O)Nc2ccc(CN(C)C4CCOCC4)cc2)CCC3)cc1 ; method: radiometric ; result: 0.95 µM
CCCCOCCOc1ccc(-c2ccc3c(c2)C=C(C(=O)Nc2ccc(S(=O)Cc4cn(CCC)cn4)cc2)CCN3CC(C)C)cc1 ; method: radiometric ; result: 0.044 µM
COc1ccc(CC2CCN(CCCN(C(=O)C3CCN(S(C)(=O)=O)CC3)c3ccc(Cl)c(Cl)c3)CC2)cc1 ; method: radiometric ; result: 0.0079 µM
O=S(=O)(c1ccccc1)N1C[C@@H](CN2CCC(c3ccccc3)CC2)[C@](O)(c2ccccc2)C1 ; method: radiometric ; result: ~10 µM
CC(=O)N1CCC(C(=O)N(CCCN2CCC(Cc3ccccc3)CC2)c2ccc(C)c(Cl)c2)CC1 ; method: radiometric ; result: 0.00062 µM
CCCCOCCOc1ccc(-c2ccc3c(c2)C=C(C(=O)Nc2ccc([S@@](=O)Cc4cncn4CCC)cc2)CCN3CCC)cc1 ; method: radiometric ; result: 0.0017 µM
CCN(C(=O)Cc1ccc(S(C)(=O)=O)cc1)C1CCN(CC[C@H](NC(=O)C2CCN(S(=O)(=O)c3ccc(F)cc3)CC2)c2ccccc2)CC1 ; method: fluorescence ; result: <50 µM
CCCCOCCOc1ccc(-c2ccc3c(c2)C=C(C(=O)Nc2ccc([C@H](O)c4cccc[n+]4[O-])cc2)CCN3Cc2ccccc2)cc1 ; method: radiometric ; result: 0.02 µM
C=C(C)[C@H]1CC[C@@]2(C)CC[C@]3(C)C[C@@H]4[C@H](/C(C)=C\C[C@H]3[C@H]12)[C@H](O)C[C@@H]4C ; method: radiometric ; result: >33 µM
CCCCOCCOc1ccc(-c2ccc3c(c2)C=C(C(=O)Nc2ccc([C@H](O)c4cccc[n+]4[O-])cc2)CCS3(=O)=O)cc1 ; method: radiometric ; result: 0.43 µM
CCO/N=C(\c1ccc(Br)cc1)C1CCN(C2(C)CCN(C(=O)c3c(C)cc[n+]([O-])c3C)CC2)CC1 ; method: fluorescence ; result: >1 µM
CC(=O)N1CCC(C(=O)Nc2ccc(CN(C)C3CCOCC3)cc2)=Cc2cc(-c3ccc(N4CCOCC4)cc3)ccc21 ; method: radiometric ; result: 0.2 µM
CCCCOCCOc1ccc(-c2ccc3c(c2)C=C(C(=O)Nc2ccc(C(O)c4cccc[n+]4[O-])c(C)c2)CCN3CC(C)C)cc1 ; method: radiometric ; result: 0.032 µM
CCN(C(=O)Cc1ccc(S(C)(=O)=O)cc1)C1CCN(CCC(c2ccccc2)N2CCN(C(=O)c3ccccc3)CC2)CC1 ; method: radiometric ; result: 0.014 µM